Test results taken from the supplement of paper PMC12637763.
This is one part of the list. Env chains of viruses from a treatment-interruption trial, translated from the printed DNA. IC50 / IC80 of two broadly neutralizing antibodies; lower = more sensitive virus; >50 µg/ml means not reached and <0.001 µg/ml is below the lowest dose. No active / inactive call.

B1: HIV-1 Env, rebound clone, antibody arm (protein)
chain: MKVKGIRKNYQHLWRWDTMLTMLLGMIMICSAVGNLWVTVYYGVPVWKDASTTLFCASDAKGYETEVHNVWATHACVPTDPSPQELVLENVTEDFNMWENNMVEQMQEDIISLWDQSLKPCVQLTPLCVTLNCTNIASGSINSSNTTGNISNSNDMKNCSFNISSGIQDRVKKDYAYFYNLDIVQITDDNSSNSYRLINCNTSVITQACPKVSFEPIPIHYCTPAGFAILKCNDKKFNGTGTCKNVSTVQCTHGIKPVVSTQLLLNGSLAEEEIVIRSENFTNNGKNIIVQLKEAVEINCTRVGNNTRKSIHMGPGRAFYANGDIIRNIRLAHCNISKARWNNTLRQIAIKLKEQYNNSETIKFTKSSGGDLEITTHMFNCGGEFFFCNTTQLFNSTWNNSTWNDTGNWNDTDETITLPCKIKQIINMWQRAGRAMYAPPISGNISCSSKITGLLLTRDGGNESQETKEVFRPGGGDMKDNWRSELYKYKVVKIEPLGVAPTKAKRRVVQREKRAVGLGALFLGFLGAAGSTMGAASITLTAQARQLMSGIVQQQNNLLKAIEAQQHLLQLTVWGIKQLQARVLAVERYLKDQQLLGIWGCSGKLICTTAVPWNTSWSNKSYDEIWEKMTWMQWEREIDNYTGIIYTLIHESQNQQDKNEQDLLALDHWASLWNWFDISNWLWYIRLFIMIVGGLVGLRIVFAVLSIVNRIRQGYSPISLQTPLPAQREPDRPGGIEEEGGERDRGRSTRLVHGSLALIWSDLSSLCIFSYHRLRDLLLIAARIVEILGRRGWELLKYWWNLLQYWSQELKNSAVSLLDAVAIAIAEGTDRVIEAAQRAWRRIRQGSEGVLL
B2: HIV-1 Env, rebound clone, antibody arm (protein)
chain: MKVKGIRKNYQHLWRWDTMLTMLLGMIMICSAVGNLWVTVYYGVPVWKDASTTLFCASDAKGYETEVHNVWATHACVPTDPSPQELVLENVTEDFNMWENNMVEQMQEDIISLWDQSLKPCVQLTPLCVTLNCTNIASGSINSSSTTGNISNSNDMKNCSFNISSGIQDRVKKDYAYFYNLDIVQITDDNSSNSYRLINCNTSVITQACPKVSFEPIPIHYCTPAGFAILKCNDKKFNGTGTCKNVSTVQCTHGIKPVVSTQLLLNGSLAEEEIVIRSENFTNNGKNIIVQLKEAVEINCTRVGNNTRKSIHMGPGRAFYANGDIIRNIRLAHCNISKARWNNTLRQIAIKLKEQYNNSKTIKFTKSSGGDLEITTHMFNCGGEFFFCNTTQLFNSTWNNSTWNDTGNWNDTDETITLPCKIKQIINMWQRAGRAMYAPPISGNISCSSKITGLLLTRDGGNDNESQETKEVFRPGGGDMRDNWRSELYKYKVVKIEPLGVAPTKAKRRVVQREKRAVGLGALFLGFLGAAGSTMGAASITLTAQARQLMSGIVQQQNNLLKAIEAQQHLLQLTVWGIKQLQARVLAVERYLKDQQLLGIWGCSGKLICTTAVPWNTSWSNKSYDEIWEKMTWMQWEREIDNYTGIIYTLIHESQNQQDKNEQDLLALDHWASLWNWFDISNWLWYIRLFIMIVGGLVGLRIVFAVLSIVNRIRQGYSPISLQTPLPAQREPDRPGGIEEEGGERDRGRSTRLVHGSLALIWSDLSSLCIFSYHRLRDLLLIAARIVEILGRRGWELLKYWWNLLQYWSQELKNSAVSLLDAVAIAIAEGTDRVIEAAQRAWRRIRQGSEGVLL
B3: HIV-1 Env, rebound clone, antibody arm (protein)
chain: MKVKGIRKNYQHLWRWDTMLTMLLGMIMICSAVGNLWVTVYYGVPVWKDASTTLFCASDAKGYETEVHNVWATHACVPTDPSPQELVLENVTEDFNMWENNMVEQMQEDIISLWDQSLKPCVQLTPLCVTLNCTNIASGSINGSSTTGNISNSNDMKNCSFNISSGIQDRVKKDYAYFYNLDIVQITDDNSSNSYRLINCNTSVITQACPKVSFEPIPIHYCTPAGFAILKCNDKKFNGTGTCKNVSTVQCTHGIKPVVSTQLLLNGSLAEEEIVIRSENFTNNGKNIIVQLKEAVEINCTRVGNNTRKSIHMGPGRAFYANGDIIRNIRLAHCNISKARWNNTLRQIAIKLKEQYNNSNTIKFTKSSGGDLEITTHMFNCGGEFFFCNTTQLFNSTWNNSTWNDTGNWNDTDETITLPCKIKQIINMWQRAGRAMYAPPISGNISCSSKITGLLLTRDGGNDNESQETKEVFRPGGGDMRDNWRSELYKYKVVKIEPLGVAPTKAKRRVVQREKRAVGLGALFLGFLGAAGSTMGAASITLTAQARQLMSGIVQQQNNLLKAIEAQQHLLQLTVWGIKQLQARVLAVERYLKDQQLLGIWGCSGKLICTTAVPWNTSWSNKSYDEIWEKMTWMQWEREIDNYTGIIYTLIHESQNQQDKNEQDLLALDHWASLWNWFDISNWLWYIRLFIMIVGGLVGLRIVFAVLSIVNRIRQGYSPISLQTPLPAQREPDRPGGIEEEGGERDRGRSTRLVHGSLALIWSDLSSLCIFSYHRLRDLLLIAARIVEILGRRGWELLKYWWNLLQYWSQELKNSAVSLLDAVAIAIAEGTDRVIEAAQRAWRRIRQGSEGVLI
B4: HIV-1 Env, rebound clone, antibody arm (protein)
chain: MKVKGIRKNYQHLWKWDTMLTMLLGMIMICSAVGNLWVTVYYGVPVWKDASTTLFCASDAKGYETEVHNVWATHACVPTDPSPQELVLENVTEDFNMWENNMVEQMQEDIISLWDQSLKPCVQLTPLCVTLNCTNIASGSINNSSTTGNISNSNDMKNCSFNISSGIQDRVKKDYAYFYNLDIVQITDDNSSNSYRLINCNTSVITQACPKVSFEPIPIHYCTPAGFAILKCNDKKFNGTGTCKNVSTVQCTHGIKPVVSTQLLLNGSLAEEEIVIRSENFTNNGKNIIVQLKEAVEINCTRVGNNTRKSIHMGPGRAFYANGDIIRNIRLAHCNISKARWNNTLRQIAIKLKEQYNNSKTINFTKSSGGDLEITTHMFNCGGEFFFCNTTQLFNSTWNNSTWNDTGNWNDTDETITLPCKIKQIINMWQRAGRAMYAPPISGNISCSSKITGLLLTRDGGNDNESQETKEVFRPGGGDMRDNWRSELYKYKVVKIEPLGVAPTKAKRRVVQREKRAVGLGALFLGFLGAAGSTMGAASITLTAQARQLMSGIVQQQNNLLKAIEAQQHLLQLTVWGIKQLQARVLAVERYLKDQQLLGIWGCSGKLICTTAVPWNTSWSNKSYDEIWEKMTWMQWEREIDNYTGIIYTLIHESQNQQDKNEQDLLALDHWASLWNWFDISNWLWYIRLFIMIVGGLVGLRIVFAVLSIVNRIRQGYSPISLQTPLPAQREPDRPGGIEEEGGERDRGRSTRLVHGSLALIWSDLSSLCIFSYHRLRDLLLIAARIVEILGRRGWELLKYWWNLLQYWSQELKNSAVSLLDAVAIAIAEGTDRVIEAAQRAWRRIRQGSEGVLL
B5: HIV-1 Env, rebound clone, antibody arm (protein)
chain: MKVKGIRKNYQHLWRRDTMLTMLLGMIMICSAVGNLWVTVYYGVPVWKDASTTLFCASDAKGYETEVHNVWATHACVPTDPSPQELVLENVTEDFNMWENNMVEQMQEDIISLWDQSLKPCVQLTPLCVTLNCTNIASGSINSSSTNGNISNSNDMKNCSFNISSGIQDRVKKDYAYFYNLDIVQITDDNSSNSYRLINCNTSVITQACPKVSFEPIPIHYCTPAGFAILKCNDKKFNGTGTCKNVSTVQCTHGIKPVVSTQLLLNGSLAEEEIVIRSENFTNNGKNIIVQLKEAVEINCTRVGNNTRKSIHMGPGRAFYANGDIIRNIRLAHCNISKARWNNTLRQIAIKLKEQYNNSKTIKFTKSSGGDLEITTHMFNCGGEFFFCNTTQLFNSTWNNSTWNDTGNWNDTDETITLPCKIKQIINMWQRAGRAMYAPPISGNISCSSKITGLLLTRDGGNDNESQGTKEVFRPGGGDMRDNWRSELYKYKVVKIEPLGVAPTKAKRRVVQREKRAVGLGALFLGFLGAAGSTMGAASITLTAQARQLMSGIVQQQNNLLKAIEAQQHLLQLTVWGIKQLQARVLAVERYLKDQQLLGIWGCSGKLICTTAVPWNTSWSNKSYDEIWEKMTWMQWEREIDNYTGIIYTLIHESQNQQDKNEQDLLALDHWASLWNWFDISNWLWYIRLFIMIVGGLVGLRIVFAVLSIVNRIRQGYSPISLQTPLPAQREPDRPGGIEEEGGERDRGRSTRLVHGSLALIWSDLSSLCIFSYHRLRDLLLIAARIVEILGRRGWELLKYWWNLLQYWSQELKNSAVSLLDAVAIAIAEGTDRVIEAAQRAWRRIRQGSEGVLL
B6: HIV-1 Env, rebound clone, placebo arm (protein)
chain: MRVMGTQRNYPLLWNWVMTIFWMIIIGNANQLWVTVYYGVPVWKEAETTLFCASDAKAYDTEVHNVWATHACVPTDPDPREIPLENVTEKFNIWKNDMVEQMHQDIISLWDQSLKPCVKLTPLCVTLHCTNATAINATVGNSTDMKNCSFNVTTIRRDKMQKEYALFYNLDIVQIDNSDSYRLVSCNTSVITQACPKVSFEPIPIHYCAPAGFAIIKCNNKTFNGTGPCTNVSTVQCTHGIKPVVSTQLLLNGSLAEEKIMIRSENITNSAKTIIVQLKKSVTINCTRPGNNTRKSIRIGPGQTYYATGAIIGDIRQAHCNVSKKEWMDTLQEVAKQLGEHFISAQNISFNSSSGGDVEITTHSFICGGEFFYCNTTGLFNSTWIKNNTGINNDTWTIYNESSSNWTGTITLQCRIKQYVNLWQRVGRAMYAPPIRGDINCTSNITGLLLTRDGGGNKESQTFRPIGGDMRDNWRSELYKYKVVKIEPLGVAPTYAKRRVVGREKRAVGLGAVFLGFLGAAGSTMGAASITLTVQARQLLSGIVQQQSNLLQAIEAQQHLLRLTVWGIKQLQARVLALERYLRDQQLLGIWGCSGKLICPTTVPWNSSWSNKTVNEIWDNMTWLQWDKEISNYTETIYALIEQSQNQQEKNEQDLLALDKWANLWNWFDITKWLWYIKIFIMIVGGLIGLRIVFAVFSLVNRVRQGYSPLSFQILTHRQREPDRPGRIEEEGGEQDRDRSVRLVSGFLALAWDDLRSLCLFLYHRLRDFVLIATRGVELLGHSILKGLRLGWEALKHLWNLLSYWSQELKNSAISLFDTIAIAVANWTDRIIELGQAAGRAILHIPRRIRQGLERALL

Target: antibody 10-1074
Experiment: neutralization IC50; higher = virus less sensitive to the antibody
Method: (§1)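 Pseudovirus bearing the Env chain mixed with antibody, from 50 µg/ml in fivefold dilutions, on TZM-bl reporter cells, in duplicate.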

Row | Binder | neutralization IC50 [µg/mL]
1 | B1 | > 50
2 | B2 | > 50
3 | B3 | > 50
4 | B4 | > 50
5 | B5 | > 50
6 | B6 | 0.001

Target: antibody 3BNC117
Experiment: as above
Method: as §1

Row | Binder | neutralization IC50 [µg/mL]
7 | B1 | 5.58
8 | B2 | > 50
9 | B3 | > 50
10 | B4 | > 50
11 | B5 | > 50
12 | B6 | 0.074

Target: antibody 10-1074
Experiment: neutralization IC80; higher = virus less sensitive to the antibody
Method: as §1

Row | Binder | neutralization IC80 [µg/mL]
13 | B1 | > 50
14 | B2 | > 50
15 | B3 | > 50
16 | B4 | > 50
17 | B5 | > 50
18 | B6 | 0.005

Target: antibody 3BNC117
Experiment: as above
Method: as §1

Row | Binder | neutralization IC80 [µg/mL]
19 | B1 | > 50
20 | B2 | > 50
21 | B3 | > 50
22 | B4 | > 50
23 | B5 | > 50
24 | B6 | 0.549
